Compound potency records, mixed from different reports. Data source: NIAID ChemDB in PubChem.

Shared fields: enzyme or target tests; agent: HIV-1; target: Reverse transcriptase; read-out: Ki

Blank or dashed fields: not listed here. Rows are shuffled and stem from different studies.

compound,strain,mutations,read by,conditions,result
Nc1ncnc2c1ncn2[C@H]1CC[C@@H](COP(=O)(O)OP(=O)(O)OP(=O)(O)O)O1,HXB2D,,nucleotide incorporation,,0.29 µM
O=C1CCN(CCOc2ccc(Cl)cc2C(=O)c2cc(Cl)cc(Cl)c2)C(=O)N1,,Y181C,RT activity,pseudotyped,0.36 µM
O=c1c2cccn2c2ccccc2n1CCNC(=S)Nc1ccc(Br)cn1,,RT-Y181I,nucleotide incorporation,,4 µM
Cc1cc(C)nc(NC(=S)N[C@@H](C)c2cccc3ccccc23)c1,,,,,>100 µM
Nc1ccn([C@@H]2CS[C@H](COP(=O)(O)OP(=O)(O)OP(=O)(O)O)O2)c(=O)n1,,,,,0.28 µM
Nc1ncnc2c1ncn2[C@@H]1O[C@H](COP(=O)(O)OP(=O)(O)OP(=O)(O)O)C[C@@H]1F,,RT-K65R,nucleotide incorporation / radiometric,,29 µM
Nc1ccn([C@H]2CC[C@@H](COP(=O)(O)OP(=O)(O)OP(=O)(O)O)O2)c(=O)n1,,RT-Y181I,RT activity,,0.4 µM
CC(C)(C)OC(=O)Cn1cnc2c(Oc3ccccc3[N+](=O)[O-])nc(NC(=O)OCc3ccccc3)nc21,WT,,nucleotide incorporation / radiometric,,3.7 µM
Nc1nc2c(ncn2COCCOP(=O)(O)OP(=O)(O)OP(=O)(O)O)c(=O)[nH]1,,,nucleotide incorporation / radiometric,,>20 µM
Cc1cccc(NC(=S)N[C@@H](C)c2cccc3ccccc23)n1,,,,,>100 µM
O=c1c2cccn2c2ccccc2n1CCNC(=S)Nc1ccc(Cl)cn1,,RT-Y188L,nucleotide incorporation,,>5 µM
O=P(O)(O)OP(=O)(O)O,,RT-H208Y,,,2700 µM
Nc1ncnc2c1ncn2[C@H]1CC[C@@H](COP(=O)(O)OP(=O)(O)OP(=O)(O)O)O1,,RT-L74V,nucleotide incorporation / radiometric,,0.61 µM
CC(C)(C)OC(=O)Cn1cnc2c(=O)[nH]c(NC(=O)OCc3ccccc3)nc21,WT,,nucleotide incorporation / radiometric,,400 µM
O=C1c2ccncc2C(=O)N1CCNC(=S)Nc1ccc(Br)cn1,,RT-K103N,nucleotide incorporation,,>5 µM
Cc1ccc(NC(=S)N[C@@H](C)c2cccc3ccccc23)nc1,,,,,>100 µM
Cc1cn([C@H]2C=C[C@@H](COP(=O)(O)OP(=O)(O)OP(=O)(O)O)O2)c(=O)[nH]c1=O,,RT-Q151M,nucleotide incorporation / radiometric,,0.85 µM
CC(C)=CCOc1cc(NC(=S)c2ccoc2C)ccc1Cl,,,nucleotide incorporation / radiometric,,0.004 µM
O=c1c2cccn2c2cccc(F)c2n1CCNC(=S)Nc1ccc(Br)cn1,,RT-Y188L,nucleotide incorporation,,0.2 µM
Cc1cc(C)cc(C(=O)c2cc(Cl)ccc2OCCN2CCC(=O)NC2=O)c1,,K103N,RT activity,pseudotyped,33 µM
[B-][P@](=O)(OC[C@@H]1C=C[C@H](n2cc(C)c(=O)[nH]c2=O)O1)OP(=O)(O)OP(=O)(O)O,,,,,0.0203 µM
Cc1c(C(C)c2c(F)cccc2F)nc(N(C)C)[nH]c1=O,,RT-L100I,nucleotide incorporation / radiometric,,1.2 µM
O=C1c2cccnc2C(=O)N1CCNC(=S)Nc1ccc(Br)cn1,,RT-K103N,nucleotide incorporation,,0.015 µM
Nc1ccn([C@H]2CC[C@@H](COP(=O)(O)OP(=O)(O)OP(=O)(O)O)O2)c(=O)n1,,,nucleotide incorporation,,0.29 µM
O=c1c2cccn2ccn1CCNC(=S)Nc1ccc(Br)cn1,,RT-Y181I,nucleotide incorporation,,0.43 µM
Cc1cccc2sc(NC(=S)N[C@@H](C)c3cccc4ccccc34)nc12,,,,,>100 µM
Nc1ccn([C@H]2CS[C@@H](COP(=O)(O)OP(=O)(O)OP(=O)(O)O)O2)c(=O)n1,HXB2D,,nucleotide incorporation,,1.16 µM

For reference, 2 entries again:

compound,strain,mutations,read by,conditions,result
Nc1ccn([C@H]2CC[C@@H](COP(=O)(O)OP(=O)(O)OP(=O)(O)O)O2)c(=O)n1,,RT-Y181I,RT activity,,0.4 µM
Cc1cn([C@H]2C=C[C@@H](COP(=O)(O)OP(=O)(O)OP(=O)(O)O)O2)c(=O)[nH]c1=O,,RT-Q151M,nucleotide incorporation / radiometric,,0.85 µM